Compound potency records, mixed from different reports. Data source: NIAID ChemDB in PubChem.

Shared fields: growth or infection tests

Lines come from different laboratories, so protocols vary.

SMILES | strain or isolate | dose | organism | measure | method | cells | value
O=c1[nH]c(=O)n([C@@H]2O[C@H](CO)[C@@H](O)[C@@H]2O)cc1/C=C/Br | YS | 0.01 µg/mL | Varicella zoster virus | inhibition | plaque count | HELF | 100%
CCC(CC)[C@H](NC(C)=O)[C@@H]1[C@H](O)[C@@H](C(=O)O)C[C@H]1N=C(N)N | H1N1 A/NWS/33 |  | Influenza A virus | EC50 |  | MDCK | 21 µM
Nc1cc(S(=O)(=O)[O-])cc2cc(S(=O)(=O)[O-])ccc12 |  | 50 µg/mL | Herpes simplex virus | inhibition | cytopathic effect | Human conjunctiva cells | 0%
CCOC(=O)c1ccc(OCCC2CCN(c3ccc(C)nn3)CC2)cc1 | 353 (ICAM-1 receptor group 13) |  | Rhinovirus | EC50 | neutral red | KB | 0.108 µM
Cc1ccc(C(=O)Nc2ccc(S(=O)(=O)O)c3cc(S(=O)(=O)O)cc(S(=O)(=O)O)c23)cc1NC(=O)c1cccc(NC(=O)Nc2cccc(C(=O)Nc3cc(C(=O)Nc4ccc(S(=O)(=O)O)c5cc(S(=O)(=O)O)cc(S(=O)(=O)O)c45)ccc3C)c2)c1 |  | 10 µg/mL | Rhinovirus | inhibition | cytopathic effect | Human embryonic lung cells | 0%
Oc1ccccc1N=Cc1ccccc1 | 28JF |  | Cryptococcus neoformans | MIC99 |  |  | 8 µg/mL
O=S(=O)(O)c1cccc2c(O)cccc12 | TYPE 3 | 10 µg/mL | Adenovirus | inhibition | cytopathic effect | Human amnion AV3 cells | 0%
CCOC(=O)c1c(C)nc(NCCCCNc2ccnc3cc(Cl)ccc23)nc1-c1ccccc1 | WP |  | Cryptococcus neoformans | MIC99 |  |  | 5.7 µg/mL
Nc1nc2c(ncn2COCCO)c(=O)[nH]1 | KANNO | 10 µg/mL | Varicella zoster virus | inhibition | plaque count | HELF | 100%
O=C(Nc1ccc2c(O)c(N=Nc3ccc(N=Nc4ccc(S(=O)(=O)O)cc4)cc3)c(S(=O)(=O)O)cc2c1)c1ccccc1 | TYPE 3 | 10 µg/mL | Adenovirus | inhibition | cytopathic effect | Human amnion AV3 cells | 0%
Oc1ccccc1C=Nc1ccccc1O | L 27/01 |  | Cryptococcus gattii | MIC99 |  |  | 16 µg/mL
Cc1cn([C@@H]2O[C@H](CO)[C@@H](O)[C@@H]2F)c(=O)nc1N | OKA | 0.1 µg/mL | Varicella zoster virus | inhibition | plaque count | HELF | 100%
Cc1nc(NCCCCNc2ccnc3cc(Cl)ccc23)nc(-c2ccccc2)c1C(=O)OC(C)C | VM-MCMMPI |  | Cryptococcus neoformans | MIC99 |  |  | 8 µg/mL
O=S(=O)(O)c1ccc2ccc(S(=O)(=O)O)cc2c1 |  | 5 µg/mL | Herpes simplex virus | inhibition | cytopathic effect | Human amnion AV3 cells | 0%
O=c1[nH]c(=O)n([C@H]2C[C@H](O)[C@@H](CO)O2)cc1/C=C/Br | HIRAI | 0.1 µg/mL | Varicella zoster virus | inhibition | plaque count | HELF | 100%
CCOC(=O)/C=C/[C@H](C[C@@H]1CCNC1=O)NC(=O)[C@@H](CC(=O)[C@@H](NC(=O)c1cc(C)on1)C(C)C)Cc1ccc(F)cc1 | Isolate 24 |  | Rhinovirus | EC50 | cytopathic effect / visual reading | OHIO HELA-I | 0.02 µg/mL
O=c1[nH]c(=O)n([C@@H]2O[C@H](CO)[C@@H](O)[C@@H]2O)cc1/C=C/Cl | OKA | 0.0001 µg/mL | Varicella zoster virus | inhibition | plaque count | HELF | 7%
Cc1cc(-c2ccc(N=Nc3ccc4c(S(=O)(=O)O)cc(S(=O)(=O)O)c(N)c4c3O)c(C)c2)ccc1N=Nc1ccc2c(S(=O)(=O)O)cc(S(=O)(=O)O)c(N)c2c1O |  | 5 µg/mL | Rhinovirus | inhibition | cytopathic effect | Human embryonic lung cells | 0%
C=CCc1ccc(OC)c(OC)c1 | 3013 |  | Candida tropicalis | MIC90 | turbidity |  | 340 µg/mL
C/C=C\[C@@H]1C[C@H](C(=O)O)N[C@H]1[C@@H](NC(C)=O)[C@](C)(CCC)OC | Influenza A H3N2 isolate C26C |  | Influenza A virus | EC50 | plaque count | MDCK | 5.1 µg/mL
O=C(Nc1cc(S(=O)(=O)O)cc2cc(S(=O)(=O)O)cc(O)c12)c1ccccc1 | TYPE 3 | 10 µg/mL | Adenovirus | inhibition | cytopathic effect | Human embryonic lung cells | 20%

A second listing of 3 rows from above:

SMILES,strain or isolate,dose,organism,measure,method,cells,value
Cc1cc(-c2ccc(N=Nc3ccc4c(S(=O)(=O)O)cc(S(=O)(=O)O)c(N)c4c3O)c(C)c2)ccc1N=Nc1ccc2c(S(=O)(=O)O)cc(S(=O)(=O)O)c(N)c2c1O,,5 µg/mL,Rhinovirus,inhibition,cytopathic effect,Human embryonic lung cells,0%
Cc1ccc(C(=O)Nc2ccc(S(=O)(=O)O)c3cc(S(=O)(=O)O)cc(S(=O)(=O)O)c23)cc1NC(=O)c1cccc(NC(=O)Nc2cccc(C(=O)Nc3cc(C(=O)Nc4ccc(S(=O)(=O)O)c5cc(S(=O)(=O)O)cc(S(=O)(=O)O)c45)ccc3C)c2)c1,,10 µg/mL,Rhinovirus,inhibition,cytopathic effect,Human embryonic lung cells,0%
C=CCc1ccc(OC)c(OC)c1,3013,,Candida tropicalis,MIC90,turbidity,,340 µg/mL

ECn is the concentration giving n% inhibition of infection, replication or growth. MIC50, MIC90 and the like: level of inhibition, or share of isolates inhibited. An empty or dashed field is not shown. Inhibition is in % at the dose shown (toxicity tests: loss of growth or viability).